PubChem BioAssay AID1259414 | Drosophila RNAi Screening Center – 2018
In all, the deposit lists about 24,000 reagents; this is an unselected part of those with a known target gene and a result. In the full data, about 1,210 (5%) were called active. 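Inactive calls also include excluded dsRNAs with several or no targets, genes unexpressed in JW18, and well A1, regardless of score.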 Unmarked entries are inactive. Names joined by + are all predicted targets of the reagent.

Test: 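Genome-wide screen for host control of endosymbiont load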 (primary screen)
System: Drosophila JW18 cells infected with Wolbachia
Reagents: long dsRNA against Drosophila genes, 0.25 µg dsRNA per well of a 384-well plate
Timing: 5 days
Treatment: cells persistently infected with Wolbachia before knock-down; no added drug
Detection: 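Automated imaging of bacterial rRNA staining divided by host cell count, reported as plate-normalised robust z-score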
Scale: Wolbachia per cell robust z: higher = more Wolbachia per host cell than the plate typical
Rule for the call: 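Active if absolute robust z reaches 1.5 in two or more of three replicates, leaving out multi- or no-target dsRNAs, genes unexpressed in JW18 and A1 wells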

Target gene | dsRNA | Wolbachia per cell robust z, rep 1 | Wolbachia per cell robust z, rep 2 | Wolbachia per cell robust z, rep 3
CG30472 | DRSC22245 | -0.104 | 1.03 | 0.816
CG30472 | DRSC26789 | 0.554 | 0.0331 | -0.715
CG18809 | DRSC19818 | -3.61 (active) | -1.56 | -1.14
CG18809 | DRSC24451 | 0.509 | -0.25 | -0.286
CG2003 | DRSC15411 | -0.9 | -1.14 | -0.343
Frmd5 (FERM domain containing) | DRSC02802 | -0.829 | 0.604 | -2.13
Septin1 (Septin 1) | DRSC20573 | 0.388 | 0.776 | 0.89
Cpr50Ca (Cuticular protein 50Ca) | DRSC05454 | 1.19 | 0.688 | 1.53
Cpr50Ca (Cuticular protein 50Ca) | DRSC06372 | 0.864 | 0.317 | -0.554
Cpr50Ca (Cuticular protein 50Ca) | DRSC06375 | -2.24 | -0.84 | -0.992
Or98a (Odorant receptor 98a) | DRSC16774 | -0.1 | -1.95 | -0.374
Or98a (Odorant receptor 98a) | DRSC26173 | 0.54 | -1.9 | 0.142

Next part, starting with the last 4 of the part before.
Target gene | dsRNA | Wolbachia per cell robust z, rep 1 | Wolbachia per cell robust z, rep 2 | Wolbachia per cell robust z, rep 3
Cpr50Ca (Cuticular protein 50Ca) | DRSC06372 | 0.864 | 0.317 | -0.554
Cpr50Ca (Cuticular protein 50Ca) | DRSC06375 | -2.24 | -0.84 | -0.992
Or98a (Odorant receptor 98a) | DRSC16774 | -0.1 | -1.95 | -0.374
Or98a (Odorant receptor 98a) | DRSC26173 | 0.54 | -1.9 | 0.142
CG1662 | DRSC19754 | 0.409 | -0.564 | 0.898
CG17508 | DRSC07771 | -3.31 | -1.21 | -0.899
mol (moladietz) | DRSC01431 | 0.235 | 0.391 | -2.27
mol (moladietz) | DRSC01912 | 1.87 | 0.918 | -10.2
mol (moladietz) | DRSC02479 | -2.21 | 0.0737 | 0.0976
mol (moladietz) | DRSC23967 | 0.0309 | -0.488 | 0.755
CG3036 | DRSC00260 | 0.495 | -8.02 | 0.753
CG3036 | DRSC00562 | 0.345 | 1.48 | 0.0195
CG3036 | DRSC24856 | -8.12 | 1.39 | 0.413
Fcp3C (Follicle cell protein 3C) | DRSC18665 | -0.836 | -8.23 | -0.427
CG5435 | DRSC02860 | -1.17 | -2.38 | 0.266
phtf | DRSC05023 | -5.27 | 0.573 | 0.548
phtf | DRSC28441 | -1.88 | -1.18 | -0.573
Septin5 (Septin 5) | DRSC06843 | -0.651 | 0.69 | 0.0553
Septin5 (Septin 5) | DRSC29954 | -0.16 | -0.14 | -4.46
CG1407 + CG12128 | DRSC06446 | 0.0663 | -0.354 | -0.293
